Reference: US20230113734A1 (CELLTRION, published 2023)

B1: No. 3 scFv-Fc antibody fragment (scFv, V domains shown)
VH: not shown
VL: ELVMTQSPSSLSASVGDRVTITCQASQDISNYLNWYQQKPGKAPKLLIYDASNLETGVPSRFSGSGSGTDFTFTISSLQPEDIATYYCQQYDNLPITFGQGTRLEIK
B2: No. 236 scFv-Fc antibody fragment (scFv, V domains shown)
VH: EVQLLESRGGVVQPGRSLRLSCAASGFTFSTYSMHWVRQAPGKGLEWVAVISYDGSNKYYADSVKGRFTISRDNSKNTLYLQMNSLRAEDTAVYYCARGDYYGSGSYYNPSPFFDYWGQGTLVTVSS
VL: ELVLTQPPSASGTPGQRVTISCSGSSSNIGSNTVNWYQQLPGTAPKLLIYSNNQRPSGVPDRFSGSKSGTSASLAISGLQPEDEADYYCGTWDSNSETWVFGGGTKLTVL
B3: No. 249 scFv-Fc antibody fragment (scFv, V domains shown)
VH: not shown
VL: ELELTQPPSVSVAPGKTARITCGGNNIGSKSVHWYQQKPGQAPVLVIYYDSDRPSGIPERFSGSNSGNTATLTISRVEAGDEADYYCQVWDGSSDHYVFGTGTKVTVL
B4: No. 263 scFv-Fc antibody fragment (scFv, V domains shown)
VH: EVQLVESGGGLVQPGRTLRLSCAASGFTFDDYAMHWVRQPPGKGLEWVSGIDWNSGLIGYADAVKGRFTLSRDNAKNSIFLQMNSLRAEDTALYYCVKDMGSTGGYYGMDVWGQGTTVTVSS
VL: ELVLTQPPSVSAAPGQKVTISCSGSSPNIGNNYVSWYQQLPGTAPKLLIYDNNKRPSGIPDRFSGSKSGTSATLGITGLQTGDEADYYCGTWDSSLSAYVFGTGTKLTVL
B5: No. 197 scFv-Fc antibody fragment (scFv, V domains shown)
VH: QVQLVQSGAEVKKPGSSVKVSCEASGGTFSSYAISWVRQAPGQGLEWMGGIIPILGIANYAQKFQGRVTITADKSTSTAYMELSSLRSEDTAVYYCARVRGYSGYGSTYYFDYWGQGTLVTVSS
VL: ELVLTQPPSVSGAPGQRVTISCTGSSSNIGAGYDVHWYQQFPGTAPKLLIYGNSNRPSGVPDRFSGSKSGTSASLAITGLQAEDEADYYCQSYDSSLSGSIFGGGTKLTVL
B6: No. 212 scFv-Fc antibody fragment (scFv, V domains shown)
VH: B2 VH with L5V, E6Q, R8G, Q13R, T31N, Y32F, S33A, A88P
VL: not shown
B7: No. 239 scFv-Fc antibody fragment (scFv, V domains shown)
VH: B2 VH with L5V, R8G, V11L, R16G, T31N, Y32F, S33A
VL: DLVLTQPPSASGTPGQRVTMSCSGSSSNIGSKTVNWYQQLPGTAPKLLIYSNNQRPSGVPDRFSGSKSGTSASLAISGLRSEDEADYYCAAWDDSLSGWVFGGGTQLTVL

Target: T1, SARS-CoV-2 S protein (spike protein) (SARS-CoV-2, UniProt P0DTC2 16-1213)
Assay: ELISA, S proteins on plate

Binder	Binding ability
B1	1.48 relative to positive control antibody
B2	1.5 relative to positive control antibody
B3	0.34 relative to positive control antibody
B4	1.46 relative to positive control antibody

Target: T1, SARS-CoV-2 S protein (spike protein)
Assay: not given

Binder	Binding ability
B5	2.09 relative to positive control antibody
B6	1.56 relative to positive control antibody
B7	1.45 relative to positive control antibody

Residue numbers refer to the chain shown, from its start.
